# Experiment: In vitro comparative nebulizer evaluation
# Settings: ultrasonic DeVilbiss 99 nebulizer, 600 mg
structure (smiles),measurement,value
NC[C@H]1O[C@H](O[C@H]2[C@H](O)[C@@H](O[C@H]3O[C@H](CO)[C@@H](O)[C@H](N)[C@H]3O)[C@H](N)C[C@@H]2N)[C@H](N)C[C@@H]1O [tobramycin],drug delivered,33 mg/mL

# — patent US6387886B1, “Method for the treatment of severe chronic bronchitis (bronchietasis) with an aerosolized antibiotic” (Chiron Corporation, priority 1998, dated 2002)
